Results of unrelated studies side by side (data: NIAID ChemDB).

Common to all: whole-cell or culture tests; agent: HIV-1; endpoint: inhibition

Percent inhibition refers to the dose given; in toxicity tests it is the harm to the cells. Lines come from different laboratories, so protocols vary. An empty or dashed field is not shown.

smiles	read by	strain or isolate	cells	setting	dose	changes	result
COC(=O)[C@H]1[C@H]2C[C@@H]3c4[nH]c5cc(OC)ccc5c4CCN3C[C@H]2C[C@@H](OC(=O)/C=C/c2cc(OC)c(OC)c(OC)c2)[C@@H]1OC		LAV	MT-4		100 µg/mL		0%
OC[C@@H]1CC[C@H](n2cnc3c(=S)nc[nH]c32)O1	cytopathic effect / trypan blue	IIIB	ATH8		20 µM		2%
O=C1N(Cc2ccc(CO)cc2)[C@H](Cc2ccccc2)[C@H](O)[C@@H](O)[C@@H](Cc2ccccc2)N1Cc1ccc(CO)cc1	virus yield	IIIB	H9		0.14 µM		90%
Cc1cn([C@H]2C[C@H](N=[N+]=[N-])[C@@H](CO)O2)c(=O)[nH]c1=O	syncytia	LAV-1	HT4 + HT4-6C		0.00316 µM		21%
CC(C)(CO)[C@@H](O)C(=O)NCCCC(=O)O		LAV	MT-4		100 µg/mL		80%
CCC[C@@]1(CCc2ccccc2)CC(O)=C([C@H](CC)c2cccc(NS(=O)(=O)c3ccc(C(F)(F)F)cn3)c2)C(=O)O1	p24	Isolate N. Amer 7	PBMC		0.16 µM		90%
Cc1cn([C@H]2C[C@H](N=[N+]=[N-])[C@@H](CO)O2)c(=O)[nH]c1=O	cytopathic effect / trypan blue	IIIB	ATH8		1 µM		100%
Nc1ncnc2c1ncn2[C@H]1CC[C@@H](CO)O1	ELISA	LAV-Bru	CEM13 + CEM		1 µM		0%
CCCCCCCCCCCCCCCCOP(=O)(OC[C@H]1OC(O)[C@H](O)[C@@H](O)[C@@H]1O)OC[C@H]1O[C@@H](n2cc(C)c(=O)[nH]c2=O)C[C@@H]1N=[N+]=[N-]	RT activity	LAV-Bru	U-937	11 d	0.2 µM		0%
COc1cc(O)c2c(=O)oc3cc(O)cc(C)c3c2c1	luciferase	ZM247Fv1	SupT1	pseudotyped	35 µM		52%
OC[C@H]1O[C@@H](n2cnc3c2NC=NC[C@H]3O)C[C@@H]1O	cytopathic effect		ATH8		0.05 µM		0%
COc1cc(O)c2c(c1)C(=O)c1c(cc3c(c1O)-c1c(cc(C)c(C(=O)N[C@H](C)C(=O)O)c1O)[C@H](O[C@@H]1O[C@H](C)[C@H](O)[C@H](O)[C@H]1O)[C@H]3O)C2=O	antigen	IIIB	MT-4		10 µg/mL		<10%
Nc1ccn([C@H]2CC[C@@H](CO)O2)c(=O)n1	virus yield	LAV-1	CEM		0.001 µM		99%
C/C(=C(/CCO)SS/C(CCO)=C(\C)N(C=O)Cc1cnc(C)nc1N)N(C=O)Cc1cnc(C)nc1N	p24	IIIB	MOLT-4/HIV-1(IIIB) + MOLT-4		500 µM		97%
Cc1cn([C@@H]2O[C@H](CO)[C@@H](N=[N+]=[N-])[C@@H]2F)c(=O)[nH]c1=O	antigen	IIIB	H9		100 µM		0%
COC(=O)C(OC(C)=O)[C@H]1C(C)(C)[C@H](OC(C)=O)[C@]2(O)CC3=C(CC[C@]4(C)C3=CC(=O)O[C@H]4c3ccoc3)[C@@]1(C)C2=O	luciferase / luminescence	NL4-3	SupT1	pseudotyped	20 µM		0%
CN1CCN(CCCN2c3ccccc3Sc3ccc(Cl)cc32)CC1		LAV	MT-4		100 µg/mL		99.9%
Nc1nc(Br)c2ncn([C@H]3CC[C@@H](CO)O3)c2n1	cytopathic effect / trypan blue	IIIB	ATH8		20 µM		100%
O=C1Nc2ccc(Cl)cc2C(c2ccccc2Cl)=NC1O		LAV	MT-4		10 µg/mL		85%
Nc1ncnc2c1ncn2[C@H]1CC[C@@H](CO)O1	cytopathic effect / trypan blue	IIIB	ATH8		20 µM		100%
Cc1cn([C@H]2C[C@H](N=[N+]=[N-])[C@@H](COP(=O)(O)OC[C@H]3OC(O)[C@@H](O)[C@@H](O)[C@@H]3O)O2)c(=O)[nH]c1=O	RT activity	LAV-Bru	U-937	14 d	25 µM		0%
CC(C)=CCOc1c2occc2cc2ccc(=O)oc12	luciferase	NL4-3 Recombinant VSV-pseudotyped	PBMC		25 µM		57%
Cc1cn([C@H]2C=C[C@@H](CO)O2)c(=O)[nH]c1=O	RT activity	SF162 R5	PBL (activated) + PBL		4 µM		99%
CCCCCCCCCCCCCC(=O)OC[C@@H](COP(=O)(O)OC[C@@H]1CC[C@H](n2cnc3c(N)ncnc32)O1)OC(=O)CCCCCCCCCCCCC	ELISA	IIIB	MT-4		10 µM		97%
NC12CC3CC(CC(C3)C1)C2		LAV	MT-4		1 µg/mL		37%
COc1ccc(CN[C@@H](C(=O)N[C@H]2c3ccccc3C[C@H]2O)[C@H](O)[C@H](Cc2ccccc2)NC(=O)[C@@H](NC(=O)OCc2ccccc2)C(C)(C)C)cc1	p24	IIIB	MOLT4 + MOLT-4		0.13 µM		90%
CCC(C)C(=O)O[C@H]1[C@@]2(C)C[C@]3(O)[C@@]1(O)C(=O)C1=C(CC[C@]4(C)C1=CC(=O)O[C@H]4c1ccoc1)[C@]3(C)[C@H]2C(O)C(=O)OC	luciferase / luminescence	NL4-3	SupT1	pseudotyped	20 µM		14.34%
COc1cc(O)c2c(c1)C(=O)c1c(cc3c(c1O)-c1c(cc(C)c(C(=O)N[C@H](C)C(=O)O)c1O)[C@H](O[C@@H]1O[C@H](C)[C@H](NC(C)=O)[C@H](O[C@@H]4OC[C@@H](O)[C@H](O)[C@H]4O)[C@H]1O)[C@H]3O)C2=O	antigen	IIIB	MT-4		10 µg/mL		<10%
Cc1cn([C@H]2C[C@H](N=[N+]=[N-])[C@@H](CO)O2)c(=O)[nH]c1=O	RT activity	BZ X4	PBL (resting) + PBL		4 µM		47%
O=C(O)P(=O)(O)O	RT activity	IIIB	PBL	21 d	256 µM		100%
Nc1ccn([C@H]2CC[C@@H](CO)O2)c(=O)n1	ELISA	LAV-Bru	CEM13 + CEM		10 µM		95%
CCc1cc(NCc2nc3c(Cl)ccc(Cl)c3o2)c(=O)[nH]c1C	antigen	MFE30(RT-P236L)	MT-4		0.01 µM	RT-P236L	100%
COc1cc(O)c2c(c1)C(=O)c1c(cc3c(c1O)-c1c(cc(C)c(C(=O)NC(C)C(=O)O)c1O)[C@H](OC1OC(C)C(N)C(O)C1O)[C@H]3O)C2=O	antigen	IIIB	MT-4		30 µg/mL		20%
CC1(C)O[C@@H]1COc1c2occc2cc2ccc(=O)oc12	luciferase	NL4-3 Recombinant VSV-pseudotyped	MT-2		25 µM		50%
O=C(O)P(=O)(O)O	p24 / antigen	IIIB	H9	2 d	30 µM		0%
COC1=C(OC)C(=O)C(C/C=C(\C)CC/C=C(\C)CC/C=C(\C)CC/C=C(\C)CC/C=C(/C)CC/C=C(\C)CC/C=C(\C)CC/C=C(\C)CC/C=C(\C)CCC=C(C)C)=C(C)C1=O		LAV	MT-4		100 µg/mL		0%
COc1cc(O)c2c(c1)C(=O)c1c(cc3c(c1O)-c1c(cc(C)c(C(=O)N[C@H](C)C(=O)O)c1O)[C@H](O[C@@H]1O[C@H](CO)[C@H](NC(C)=O)[C@H](O)[C@H]1O)[C@H]3O)C2=O	antigen	IIIB	MT-4		10 µg/mL		<10%
CCCCCCCCCCCCCC(=O)OC[C@H](COP(=O)(O)OC[C@@H]1CC[C@H](n2cnc3c(=O)[nH]c(N)nc32)O1)OC(=O)CCCCCCCCCCCCC	ELISA	LAV-Bru	CEM13 + CEM		10 µM		99%
COC(=O)C(O)[C@H]1C(C)(C)[C@H](OC(C)=O)[C@]2(O)C=C3C4=CC(=O)O[C@@H](c5ccoc5)[C@]4(C)CC[C@@H]3[C@@]1(C)C2=O	luciferase / luminescence	NL4-3	SupT1	pseudotyped	20 µM		0%
O=C(O)/C=C/c1ccc[c]([Sb](=[O])([OH])[OH])c1	β-galactosidase	92US077 X4/R5 clinical isolate	MAGI		20 µM		55.9%
Cc1cn([C@H]2C[C@H](N=[N+]=[N-])[C@@H](COP(=O)(O)OC[C@H]3OC(O)[C@H](O)[C@@H](O)[C@@H]3O)O2)c(=O)[nH]c1=O	RT activity	LAV-Bru	PBL	7 d	1 µM		94%
O=c1[nH]cnc2c1ncn2[C@H]1CC[C@@H](CO)O1	RT activity	SF162 R5	PBL (resting) + PBL		9 µM		100%
O=S(=O)(O)c1cc(N=C=S)ccc1/C=C/c1ccc(N=C=S)cc1S(=O)(=O)O	p24	GB8	JM		50 µg/mL		44%
Nc1ccn([C@H]2CC[C@@H](CO)O2)c(=O)n1	syncytia	LAV-1	HT4 + HT4-6C		0.1 µM		88%
CCC(C)C(=O)O[C@@H]1C(=O)/C=C2/C3=CC(=O)O[C@@H](c4ccoc4)[C@]3(C)CC[C@@H]2[C@@]2(C)C(=O)C[C@]1(C)[C@@H]2[C@@H](O)C(=O)OC	luciferase / luminescence	NL4-3	SupT1	pseudotyped	100 µM		97.57%

For reference, 6 entries again:

smiles | read by | strain or isolate | cells | setting | dose | changes | result
O=C(O)P(=O)(O)O | p24 / antigen | IIIB | H9 | 2 d | 30 µM |  | 0%
Nc1ccn([C@H]2CC[C@@H](CO)O2)c(=O)n1 | virus yield | LAV-1 | CEM |  | 0.001 µM |  | 99%
CC(C)=CCOc1c2occc2cc2ccc(=O)oc12 | luciferase | NL4-3 Recombinant VSV-pseudotyped | PBMC |  | 25 µM |  | 57%
CCCCCCCCCCCCCC(=O)OC[C@@H](COP(=O)(O)OC[C@@H]1CC[C@H](n2cnc3c(N)ncnc32)O1)OC(=O)CCCCCCCCCCCCC | ELISA | IIIB | MT-4 |  | 10 µM |  | 97%
O=S(=O)(O)c1cc(N=C=S)ccc1/C=C/c1ccc(N=C=S)cc1S(=O)(=O)O | p24 | GB8 | JM |  | 50 µg/mL |  | 44%
O=C(O)/C=C/c1ccc[c]([Sb](=[O])([OH])[OH])c1 | β-galactosidase | 92US077 X4/R5 clinical isolate | MAGI |  | 20 µM |  | 55.9%